# Tested on: H16N2 cells
# Assay: Cell proliferation assay (alamar blue), H16N2
# Assay type: cell-based, human
# Settings: antibodies at 150 μg/ml, day 6 of in vitro culture
substance,measurement,value
"Herceptin: anti-Her2/neu antibody, positive antibody control for Her2-positive tumor cell lines",proliferation,but not of H16N2
